Compound potency records, mixed from different reports. Data source: NIAID ChemDB in PubChem.

Shared fields: tests in culture; species: HIV-1

An empty or dashed field is not shown. ECn is the concentration giving n% inhibition of infection, replication or growth. Neighbouring rows are from separate reports.

{"structure": "NS(=O)(=O)c1ccc(NC(=O)CSc2nnc(C(F)(F)F)n2-c2ccc(Cl)c3ccccc23)c(Cl)c1", "cells": "HeLa", "measure": "EC50", "changes": "Y188L", "result": "0.041 µM"}
{"structure": "CC(C)c1nc(CN(C)C(=O)N[C@H](C(=O)N[C@@H](Cc2ccccc2)C[C@H](O)[C@H](Cc2ccccc2)NC(=O)OCc2cncs2)C(C)C)cs1", "cells": "MT-4", "strain": "NL4-3", "measure": "EC90", "method": "p24", "changes": "PR-N88D", "result": "0.01 µM"}
{"structure": "Cc1c(Sc2ccccc2)n(COCCO)c(=O)[nH]c1=O", "cells": "MT-2", "strain": "IIIB", "measure": "EC50", "method": "cytopathic effect / MTT", "result": "20.1 µM"}
{"structure": "N[C@@H](CCC(=O)Nc1ccc(B(O)O)cc1)C(=O)O", "cells": "CEM", "strain": "IIIB", "measure": "EC50", "method": "syncytia", "result": ">50 µM"}
{"structure": "COc1cc([C@@H]2c3cc4c(cc3[C@@H](O)[C@H]3COC(=O)[C@H]23)OCO4)cc(OC)c1O", "cells": "H9", "strain": "IIIB", "measure": "EC50", "method": "p24", "result": "0.057 µg/mL"}
{"structure": "Nc1ccn([C@H]2CC[C@@H](CO)O2)c(=O)n1", "cells": "H9", "strain": "IIIB", "measure": "EC50", "method": "p24", "result": "0.045 µg/mL"}
{"structure": "Cc1ccnc2c1NC(=O)c1cccnc1N2C1CC1", "cells": "MT-4", "strain": "IIIB", "measure": "EC50", "method": "cytopathic effect / MTT", "changes": "RT-E138K", "result": "0.024 µM"}
{"structure": "OB(O)c1ccccc1CN1CCSCC1", "cells": "CEM", "strain": "IIIB", "measure": "EC50", "method": "syncytia", "result": ">50 µM"}
{"structure": "CC1=C[C@H]([C@H](O)[C@H](C)[C@@H]2C[C@@H](O)[C@@]3(O)[C@H]4CC[C@@H]5C(C)(C)O[C@H]6CC(=O)O[C@]65C[C@]4(O)CC[C@@]23C)OC1=O", "cells": "MT-2 + MT-4", "strain": "IIIB", "measure": "EC50", "method": "cytopathic effect / MTT", "result": "0.47 µg/mL"}
{"structure": "NS(=O)(=O)c1ccc(NC(=O)CSc2nnc(C(F)(F)F)n2-c2cccc3ccccc23)c(Cl)c1", "cells": "HeLa", "measure": "EC50", "changes": "Y188L", "result": "0.049 µM"}
{"structure": "COc1ccc(B(O)O)cc1C=O", "cells": "CEM", "strain": "IIIB", "measure": "EC50", "method": "syncytia", "result": ">10 µM"}
{"structure": "CNC(=O)c1ccc(OC(C)C(=O)N2CCN(C(=O)c3ccccc3)C[C@H]2C)c(OC)c1", "cells": "HeLaP4", "strain": "NL4-3", "measure": "EC50", "method": "β-galactosidase", "result": "0.047 µM"}
{"structure": "COc1cc([C@@H]2c3cc4c(cc3[C@@H](Nc3ccc(NC(=O)C56CCC(C)(C(=O)O5)C6(C)C)cc3)[C@H]3COC(=O)[C@H]23)OCO4)cc(OC)c1O", "cells": "H9", "strain": "IIIB", "measure": "EC50", "method": "p24", "result": "0.0023 µg/mL"}
{"structure": "COc1cnc2c(-n3c(C)nnc3SCC(=O)Nc3ccc(S(N)(=O)=O)cc3Cl)cccc2c1", "cells": "HeLa", "measure": "EC50", "result": "0.0008 µM"}
{"structure": "CC(C)=CCN1Cc2cc(Cl)cc3[nH]c(=S)n(c23)C[C@@H]1C", "cells": "MT-4", "strain": "Recombinant mutant", "measure": "EC50", "method": "cytopathic effect / MTT", "changes": "RT-A98S", "result": "0.045 µM"}
{"structure": "CS(=O)(=O)c1ccc(OP(=O)(OC[C@@H]2CC[C@H](n3cnc4c(N)ncnc43)O2)OC[C@@H]2CC[C@H](n3cnc4c(N)ncnc43)O2)cc1", "cells": "MT-4", "strain": "IIIB", "measure": "EC50", "method": "cytopathic effect / trypan blue", "result": "8.4 µM"}
{"structure": "CC(C)(C)OC(=O)N[C@@H](Cc1ccccc1)[C@@H](O)C[C@@H](Cc1ccc(OCCN2CCOCC2)cc1)C(=O)N[C@H]1c2ccccc2C[C@H]1O", "cells": "H9", "strain": "IIIB", "measure": "EC50", "method": "p24", "result": "<0.006 µM"}
{"structure": "Cc1ccnc2c1NC(=O)c1cccnc1N2C1CC1", "cells": "PBMC", "strain": "IIIB", "measure": "EC50", "method": "p24", "result": "0.034 µM"}
{"structure": "CC(C)(C)OC(=O)N[C@@H](Cc1ccccc1)[C@@H](O)C[C@@H](Cc1ccccc1)C(=O)N[C@H]1c2ccccc2C[C@H]1O", "cells": "H9", "strain": "IIIB", "measure": "EC50", "method": "antigen", "result": "<0.4 µM"}
{"structure": "COc1cc2c(cc1OC)[C@H](O)[C@H]1COC(=O)[C@@H]1[C@@H]2c1cc(OC)c(OC)c(OC)c1", "cells": "H9", "strain": "IIIB", "measure": "EC50", "method": "p24", "result": "0.389 µg/mL"}
{"structure": "Nc1ccn([C@H]2CC[C@@H](CO)O2)c(=O)n1", "cells": "MT-4", "strain": "Clinical isolate", "measure": "EC50", "setting": "clinical isolate", "result": "0.4 µM"}
{"structure": "Cc1cn([C@H]2C[C@H](N=[N+]=[N-])[C@@H](CO)O2)c(=O)[nH]c1=O", "cells": "CEM", "strain": "IIIB", "measure": "EC50", "method": "syncytia", "changes": "RT-Y181C", "result": "0.001 µg/mL"}
{"structure": "CC(C)(C)OC(=O)N[C@@H](Cc1ccccc1)[C@@H](O)C[C@@H](Cc1ccc(OCCN2CCS(=O)(=O)CC2)cc1)C(=O)N[C@H]1c2ccccc2C[C@H]1O", "cells": "H9", "strain": "IIIB", "measure": "EC50", "method": "p24", "result": "<0.1 µM"}
{"structure": "CSc1ccc(OP(=O)(OC[C@@H]2C=C[C@H](n3cnc4c(=O)[nH]cnc43)O2)OC[C@@H]2C=C[C@H](n3cnc4c(=O)[nH]cnc43)O2)cc1", "cells": "MT-4", "strain": "IIIB", "measure": "EC50", "method": "cytopathic effect / trypan blue", "result": ">250 µM"}
{"structure": "Cc1cn([C@H]2C[C@H](N=[N+]=[N-])[C@@H](CO)O2)c(=O)[nH]c1=O", "cells": "MT-4", "strain": "92BR014 (subtype B)", "measure": "EC50", "method": "MTT", "result": "0.001 µg/mL"}
{"structure": "CC(C)c1c(CO)cn(Cc2ccncc2)c1Sc1cc(Cl)cc(Cl)c1", "cells": "C8166", "measure": "EC90", "method": "p24", "changes": "RT-Y181C", "result": "1.7 µM"}
{"structure": "S=C(NCCc1ccccn1)Nc1ccc(Br)cn1", "cells": "PBMC", "strain": "NRTI resistant (RT Y181C) A17", "measure": "EC50", "method": "p24", "changes": "RT-Y181C", "result": "0.5 µM"}
{"structure": "CC(C)(C)OC(=O)N[C@@H](Cc1ccccc1)[C@@H](O)C[C@@H](Cc1ccc(OCCN2CCSCC2)cc1)C(=O)N[C@H]1c2ccccc2C[C@H]1O", "cells": "H9", "strain": "IIIB", "measure": "EC50", "method": "antigen", "result": "<0.05 µM"}
{"structure": "Nc1ccn([C@H]2C=C[C@@H](CO)O2)c(=O)n1", "cells": "MT-4", "strain": "IIIB", "measure": "EC50", "method": "cytopathic effect / trypan blue", "result": "0.6 µM"}
{"structure": "COc1ccc2c(c1)N(C(=O)OC(C)C)[C@@H](CSC)C(=S)N2", "cells": "MT-4", "strain": "IIIB", "measure": "EC50", "method": "cytopathic effect / MTT", "changes": "RT-E138K", "result": "0.0015 µM"}
{"structure": "C[C@@H]1O[C@@H](OC[C@H]2O[C@@H](Oc3c(-c4ccc(O)c(O)c4)oc4cc(O)cc(O)c4c3=O)[C@H](O)[C@@H](O)[C@@H]2O)[C@H](O)[C@H](O)[C@H]1O", "cells": "H9", "strain": "IIIB", "measure": "EC50", "method": "p24", "result": "35.8 µg/mL"}
{"structure": "Cc1ccc2cc(Cl)cnc2c1-n1c(C)nnc1SCC(=O)Nc1ccc(S(N)(=O)=O)cc1Cl", "cells": "HeLa", "measure": "EC50", "result": "0.002 µM"}
{"structure": "COc1cc2c3c(c1OC)-c1cc(O)ccc1C[C@H]3N(C)CC2", "cells": "H9", "strain": "IIIB", "measure": "EC50", "method": "p24", "result": "0.8 µg/mL"}
{"structure": "Cc1cn([C@H]2C[C@H](N=[N+]=[N-])[C@@H](CO)O2)c(=O)[nH]c1=O", "cells": "MT-2", "strain": "AZT-resistant (RT D67N K70R T215F K219Q)", "measure": "EC50", "method": "p24", "changes": "RT-D67N K70N T215F K219Q", "result": "0.36 µM"}
{"structure": "Nc1ncnc2c1ncn2CCOCP(=O)(O)O", "cells": "MT-2", "strain": "IIIB", "measure": "EC50", "method": "cytopathic effect / MTT", "result": "10.8 µM"}
{"structure": "COc1cc2c(cc1OC)[C@@H](Nc1ccc(F)cc1)[C@H]1COC(=O)[C@@H]1[C@@H]2c1cc(OC)c(OC)c(OC)c1", "cells": "H9", "strain": "IIIB", "measure": "EC50", "method": "p24", "result": "0.151 µg/mL"}
{"structure": "CC(C)c1c(COC(N)=O)cn(Cc2ccncc2)c1Sc1ccccc1", "cells": "MT-4", "strain": "IIIB", "measure": "EC90", "method": "cytopathic effect / MTT", "result": "5 µM"}
{"structure": "CS(=O)(=O)c1ccc(OP(=O)(OC[C@@H]2C=C[C@H](n3cnc4c(=O)[nH]cnc43)O2)OC[C@@H]2C=C[C@H](n3cnc4c(=O)[nH]cnc43)O2)cc1", "cells": "MT-4", "strain": "IIIB", "measure": "EC50", "method": "cytopathic effect / trypan blue", "result": ">250 µM"}
{"structure": "Cc1cn([C@@H]2O[C@H](CO[Si](C)(C)C(C)(C)C)C3(OS(=O)(=O)C=C3N)[C@H]2O[Si](C)(C)C(C)(C)C)c(=O)n(C)c1=O", "cells": "CEM", "strain": "HXB2 (RT E138A S162C E169D T200A L214F) Clinical isolate", "measure": "EC50", "method": "syncytia", "changes": "RT-E138A S162C E169D T200A L214F", "result": "0.662 µM"}
{"structure": "OB(O)c1ccc(Cl)cc1", "cells": "CEM", "strain": "IIIB", "measure": "EC50", "method": "syncytia", "result": ">50 µM"}
{"structure": "c1cc(CN2CCCNCCNCCCNCC2)ccc1CN1CCCNCCNCCCNCC1", "cells": "PBMC", "strain": "98.6 (subtype B)", "measure": "EC50", "method": "p24 / ELISA", "result": "0.008 µg/mL"}
{"structure": "O=C(O)[C@H]1O[C@@H](Oc2c(-c3ccc(O)c(O)c3)oc3cc(O)cc(O)c3c2=O)[C@H](O)[C@@H](O)[C@@H]1O", "cells": "H9", "strain": "IIIB", "measure": "EC50", "method": "p24", "result": "2 µg/mL"}
{"structure": "O=C(O)CCc1ccc(B(O)O)cc1", "cells": "CEM", "strain": "IIIB", "measure": "EC50", "method": "syncytia", "result": ">250 µM"}
{"structure": "C[C@H](Cn1cnc2c(N)ncnc21)OCP(=O)(O)O", "cells": "CEM", "strain": "IIIB", "measure": "EC50", "method": "syncytia", "result": "1 µg/mL"}
{"structure": "CC(=O)c1ccc(C)cc1NC(C(N)=O)c1c(Cl)cccc1Cl", "cells": "MT-4", "strain": "HXB2 (RT E138A S162C E169D T200A L214F) Clinical isolate", "measure": "EC50", "method": "cytopathic effect / MTT", "changes": "RT-E138A S162C E169D T200A L214F", "result": "0.171 µM"}
{"structure": "Cc1nnc(SCC(=O)Nc2ccccc2Br)n1-c1ccc(Cl)c2ccccc12", "cells": "HeLa", "measure": "EC50", "changes": "Y188L", "result": "0.2 µM"}
{"structure": "O=c1[nH]cnc2c1ncn2[C@H]1CC[C@@H](CO)O1", "cells": "MT-2", "strain": "IIIB", "measure": "EC50", "method": "cytopathic effect / MTT", "result": "17.1 µM"}
{"structure": "Cc1ccc2c(C)ccc(-n3c(C)nnc3SCC(=O)Nc3ccc(S(N)(=O)=O)cc3Cl)c2c1", "cells": "HeLa", "measure": "EC50", "changes": "Y188L", "result": "0.006 µM"}
{"structure": "O=c1[nH]cnc2c1ncn2[C@H]1CC[C@@H](CO)O1", "cells": "MT-4", "strain": "IIIB", "measure": "EC50", "method": "cytopathic effect / trypan blue", "result": "4.9 µM"}
{"structure": "O=C1CCCN1CCCN1CC(=O)N2CC(N(CCOc3ccccc3)S(=O)(=O)c3cccc(F)c3)C[C@H]2C1=O", "cells": "TZM-bl", "strain": "PLAI-JRFL PID2-26B", "measure": "EC50", "method": "luciferase", "result": "2.22 µM"}
{"structure": "Cc1ccc2c(C)ccc(-n3c(C)nnc3SCC(=O)Nc3ccccc3Br)c2c1", "cells": "HeLa", "measure": "EC50", "changes": "Y188L", "result": "0.012 µM"}
{"structure": "Cc1ccnc2c1NC(=O)c1cccnc1N2C1CC1", "cells": "CEM", "strain": "IIIB", "measure": "EC50", "method": "syncytia", "result": "0.006 µg/mL"}
{"structure": "CC(C)c1c(CO)cn(Cc2ccncc2)c1Sc1ccccc1", "cells": "MT-4", "strain": "IIIB", "measure": "EC50", "method": "cytopathic effect / MTT", "result": "0.1 µM"}
{"structure": "Cc1cccc(C)c1CNC(=O)[C@H]1N(C(=O)[C@@H](O)C[C@@H](Cc2ccccc2)C(=O)N[C@H]2c3ccccc3C[C@H]2O)CSC1(C)C", "cells": "MT-4", "measure": "EC95", "method": "p24", "changes": "PR-K60C", "result": "0.125 µM"}
{"structure": "CC(C)=CCN1Cc2cccc3[nH]c(=S)n(c23)C[C@@H]1C", "cells": "MT-2", "strain": "IIIB", "measure": "EC50", "method": "cytopathic effect / MTT", "result": "0.13 µM"}
{"structure": "CC(C)c1c(COC(N)=O)cn(Cc2ccncc2)c1Sc1cc(Cl)cc(Cl)c1", "measure": "EC90", "method": "cytopathic effect / MTT", "changes": "RT-K103N", "result": "30 µM"}
{"structure": "CC(C)(C)OC(=O)Nc1cccc(B(O)O)c1", "cells": "CEM", "strain": "IIIB", "measure": "EC50", "method": "syncytia", "result": "≥250 µM"}

Again, the opening 7 rows:

structure	cells	strain	measure	method	setting	changes	result
NS(=O)(=O)c1ccc(NC(=O)CSc2nnc(C(F)(F)F)n2-c2ccc(Cl)c3ccccc23)c(Cl)c1	HeLa	-	EC50	-	-	Y188L	0.041 µM
CC(C)c1nc(CN(C)C(=O)N[C@H](C(=O)N[C@@H](Cc2ccccc2)C[C@H](O)[C@H](Cc2ccccc2)NC(=O)OCc2cncs2)C(C)C)cs1	MT-4	NL4-3	EC90	p24	-	PR-N88D	0.01 µM
Cc1c(Sc2ccccc2)n(COCCO)c(=O)[nH]c1=O	MT-2	IIIB	EC50	cytopathic effect / MTT	-	-	20.1 µM
N[C@@H](CCC(=O)Nc1ccc(B(O)O)cc1)C(=O)O	CEM	IIIB	EC50	syncytia	-	-	>50 µM
COc1cc([C@@H]2c3cc4c(cc3[C@@H](O)[C@H]3COC(=O)[C@H]23)OCO4)cc(OC)c1O	H9	IIIB	EC50	p24	-	-	0.057 µg/mL
Nc1ccn([C@H]2CC[C@@H](CO)O2)c(=O)n1	H9	IIIB	EC50	p24	-	-	0.045 µg/mL
Cc1ccnc2c1NC(=O)c1cccnc1N2C1CC1	MT-4	IIIB	EC50	cytopathic effect / MTT	-	RT-E138K	0.024 µM